Drawing on paper PMC10303200 (ACS Central Science, 2023), this text covers Kd for one substance.

The assay addresses RCA-I (Ricinus communis, UniProt P06750). The settings on record: read-out: Kd (ITC).

For the substance “[β-D-GlcNAc-(1→2)-α-D-Man-(1→3)]-[β-D-GlcNAc-(1→2)-α-D-Man-(1→6)]-β-D-Man(1→4)-β-D-GlcNAc-(1→4)-D-GlcNAc [Glycan G34]”, the Kd was found to be 1.7 ± 0.8 µM.

What is called Kd is the concentration at which binding is half-saturated.
